# Screening data, single-dose tests

Measurements from “University of Dundee, Small-Polar-MMV Screening Library” (2021), ChEMBL document CHEMBL3988442.

Mtb glucose medium: 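Growth of Mycobacterium tuberculosis over 3 days (7H9 medium with glucose and tyloxapol); the read-out is not stated. Concentration: 500 µM. Higher reads as more growth inhibition (inferred: compounds with an IC50 in retests scored well above the rest). About 18,000 compounds were tested under these conditions; 7.9% (about 1,400) showed 50% or more at least once.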
Mtb cholesterol medium: 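Growth of Mycobacterium tuberculosis over 4 days (cholesterol / DPPC medium with tyloxapol); the read-out is not stated. Tested at 500 µM. Direction is inferred from retests: higher values go with more growth inhibition. Size under these conditions: about 18,000 compounds, about 900 of them at 50% or above in at least one test.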

Each number is a percent effect as filed. How 0% and 100% were set is not recorded. Most values in the screen are low, and negative values occur. Many other results are left out here, so strong results are more common than in the screen.

CN(Cc1cc(=O)n2ccsc2n1)C1CCSCC1 gave Mtb glucose medium: 16.18%.
CC(C)(C)c1noc(CO)n1 gave Mtb cholesterol medium: -0.5599%.
Cc1cccc(CNCCc2nnc[nH]2)c1 gave Mtb glucose medium: 13.86%.
CN(C)c1ccc(CCNC(=O)[C@H]2CCCN2)cc1 gave Mtb glucose medium: 17.08%.
CC(C)C(=O)NC1CCOc2ccccc21 (centres undefined) gave Mtb glucose medium: 44.4%.
N#CCC(=O)NC1CCN(CC2CCCC2)CC1 gave Mtb glucose medium: 9.41%.
CN(C)S(=O)(=O)NC1CCCOc2c(Cl)cccc21 (centres undefined) gave Mtb glucose medium: 55.58%; Mtb cholesterol medium: 20.97%.
Cc1ccc(NC(=O)NCCS(=O)(=O)N(C)C)cc1Cl gave Mtb glucose medium: 80.53%; Mtb cholesterol medium: 89.07%.
Cn1cc(NC(=O)c2ccc(Br)s2)cc1C(N)=O gave Mtb glucose medium: 99.25%; Mtb cholesterol medium: 105.5%.
Cn1ncnc1CCNC(=O)c1ccsc1 gave Mtb glucose medium: 2.656%.
CCCNC(=O)c1ccc2snnc2c1 gave Mtb glucose medium: 59.26%; Mtb cholesterol medium: 47.93%.
COc1c(C)cnc(CSCCN2CCOCC2)c1C gave Mtb glucose medium: 21.66%.
CSCc1ccc(C(=O)N2CC(CC(N)=O)C2)cc1 gave Mtb glucose medium: 98.84%.
CCOc1ccccc1-n1c(C)cc(=O)[nH]c1=O gave Mtb glucose medium: -1.189%.
CN1C(=O)C[C@H](CN)[C@H]1c1cccnc1 gave Mtb glucose medium: 3.528%.
N[C@@H]1C[C@H]1c1cccc(F)c1F gave Mtb glucose medium: 46.79%.
CC(C1CC1)N(CCC#N)C(=O)N(C)C (centres undefined) gave Mtb glucose medium: 2.462%.
Cc1cccc(C(=O)NCc2cccc(O)c2)n1 gave Mtb glucose medium: 63.22%; Mtb cholesterol medium: 56.25%.
CCN(CC)C(=O)CSc1nnnn1C1CCOCC1 gave Mtb glucose medium: 15.66%.
CN(Cc1cnn(C)c1)C(=O)c1cc(Br)c[nH]1 gave Mtb glucose medium: 52.47%; Mtb cholesterol medium: 55.2%.
COc1cc(Br)c(S(=O)(=O)N2CCOCC2)cc1OC gave Mtb cholesterol medium: 14.17%.
Cn1cc([C@@H]2C[C@H]2N)cn1 gave Mtb cholesterol medium: 1.561%.
CNC(=O)c1ccc(N2CCOCC2)c(F)c1 gave Mtb glucose medium: -13.28%.
Cc1cccc(C(=O)N2CCN(S(N)(=O)=O)CC2)c1 gave Mtb glucose medium: 14.85%.
CCOC(C)c1nc(CNC)cs1 (centres undefined) gave Mtb cholesterol medium: 15.81%.
Cc1ocnc1C(=O)Nc1cncc(Br)c1O gave Mtb glucose medium: 5.655%.
CC(C)c1n[nH]c(C(=O)NCCN2CCOCC2)c1Br gave Mtb cholesterol medium: 3.607%.
CC(NS(=O)(=O)N(C)C1CCCCC1)c1ccccn1 (centres undefined) gave Mtb glucose medium: 76.59%; Mtb cholesterol medium: 40.36%.
O=C(CN1CCOCC1)NCCc1noc(C2CC2)n1 gave Mtb glucose medium: -3.835%; Mtb cholesterol medium: -9.602%.
CC(O)c1nnc[nH]1 (centres undefined) gave Mtb glucose medium: 6.024%.
CCN1CCN(C(=O)C(C)Oc2ccc(F)cc2)CC1 (centres undefined) gave Mtb glucose medium: 14.55%.
CC(C)(CC(N)=O)NCc1nc(-c2ccccc2)no1 gave Mtb glucose medium: 28.39%; Mtb cholesterol medium: 18.64%.
NC(CO)c1c(F)cccc1F (centres undefined) gave Mtb glucose medium: -1.809%.
NC(c1ccc2c(c1)OCCO2)C1CC1 (centres undefined) gave Mtb glucose medium: 12.18%; Mtb cholesterol medium: 6.069%.

For reference, 3 entries once more:

* Cn1ncnc1CCNC(=O)c1ccsc1 : Mtb glucose medium: 2.656%
* N#CCC(=O)NC1CCN(CC2CCCC2)CC1 : Mtb glucose medium: 9.41%
* CCN1CCN(C(=O)C(C)Oc2ccc(F)cc2)CC1 (centres undefined) : Mtb glucose medium: 14.55%